# Measured values reported in US7388017B2, “Inhibitors of serine proteases, particularly hepatitis C virus NS3 protease” (Vertex Pharmaceuticals Incorporated, priority 1996, dated 2008).
# The chains behind the UniProt entries cited, without tags or fusion partners. Residues count along the entry.
# UniProt P27958, 1027-1208 limits assumed: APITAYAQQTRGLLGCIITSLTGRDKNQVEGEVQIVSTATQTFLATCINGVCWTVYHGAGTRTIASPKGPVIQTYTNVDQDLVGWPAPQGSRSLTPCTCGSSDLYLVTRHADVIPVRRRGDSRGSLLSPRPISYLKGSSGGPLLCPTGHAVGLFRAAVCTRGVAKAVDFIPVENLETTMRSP
# Structures were worked out from names or drawings and are uncertain.
# Molecular target: HCV NS3 protease (Hepatitis C virus genotype 1a, UniProt P27958)
# Experiment: Enzyme inhibition of HCV NS3 serine protease (cleavage of peptide substrate / EDVV AbuC-p-nitroanilide, with or without NS4A)
# Type: biochemical
# Conditions: Enzyme inhibition data; Ki from rate vs [inhibitor] plots, Morrison tight binding competitive inhibition fit; 30 C, pH 7.8
# Method: Cleavage reactions were quenched by the addition of an equal volume of a mixture of 10% TFA:acetonitrile (1:1) and activity was assessed on a reversed phase HPLC column (Rainin C18 Microsorb-MV, […], 4.6×250 mm; 0-50% acetonitrile, 0.1% TFA@ 3.33% min) using a Hewlett Packard 1050 instrument with auto-injection and diode array detection at 210 nm and 280 nm (where appropriate). Peptide elution fragments were collected and identified by mass spectrometry and N-terminal sequence analysis. Fragment identity and concentration was further verified by authentic, synthesized products. Initial rates of cleavage were determined at <20% substrate conversion and catalytic parameters were determined assuming Michaelis-Menten kinetics using the MultiFit program (Day Computing, Cambridge, Mass.).
# Spectrophotometric assays were run in a 96-well microtiter plate at 30 C, using a SpectraMax 250 reader (Molecular Devices, Sunnyvale, Calif.) with kinetic capability. Cleavage of EDVV AbuC-p-nitroanilide (5A-pNA) substrate was performed with or without […] in the same buffer used for HPLC assays at 30 C, and pNA release was monitored at 405 nm. […]
# Kinetic constants for the rapid equilibrium ordered bisubstrate reaction were determined from rate vs [4A], [EDVV AbuC-pNA] data by non-linear least squares fitting to equation 1 [Morrison, J. F. Biochim. […]
compound,measurement,value
CC[C@@H](C=O)NC(=O)[C@@H]1C[C@@H](NC(=O)c2ccc3ccccc3c2)CN1C(=O)C(NC(=O)C(NC(=O)c1cnccn1)C(C)C)C(C)C (stereo partly shown),Ki,1 to 100 µM
